A mixed list of measured activities; the numbers were collected in NIAID ChemDB.

Shared fields: tests on isolated targets

ICn is the concentration giving n% inhibition.

{"SMILES": "Cc1cccc(Cl)c1CNC(=O)Nc1ccsc1-c1nc(C(=O)O)c(O)c(=O)[nH]1", "agent": "Hepatitis C virus", "protein": "HCV polymerase", "read-out": "IC50", "value": "<25 µM"}
{"SMILES": "C/C(=C1\\SC(=S)N(NS(=O)(=O)c2ccccc2)C1=O)c1ccc(Cl)c(Cl)c1", "agent": "Hepatitis C virus", "protein": "NS5B polymerase", "read-out": "IC50", "value": "≤30 µM"}
{"SMILES": "O=C(O)c1sc(-c2ccccc2)cc1N(C(=O)c1ccc(Cl)cc1Cl)C1CCCC[C@@H]1O", "agent": "Hepatitis C virus", "protein": "NS3 ATPase", "read-out": "IC50", "value": "<5 µM"}
{"SMILES": "O=C1/C(=C\\c2ccc3ccccc3c2)SC(=S)N1NS(=O)(=O)c1ccccc1", "agent": "Hepatitis C virus", "protein": "NS5B polymerase", "read-out": "IC50", "value": "≤30 µM"}
{"SMILES": "O=C(O)c1sc(-c2ccccc2)cc1NS(=O)(=O)c1cccc(C(F)(F)F)c1", "agent": "Hepatitis C virus", "protein": "NS3 ATPase", "read-out": "IC50", "value": "5–20 µM"}
{"SMILES": "CN1CCNCCC1c1cc(C(=O)Nc2ccc3cn[nH]c3c2)c(F)cc1F", "agent": "Hepatitis B virus", "protein": "Reverse transcriptase", "read-out": "inhibition", "tested at": "0.1 µg/mL", "value": "33%"}
{"SMILES": "O=C(Nc1cccc(-c2nc(C(=O)O)c(O)c(=O)[nH]2)c1)c1ccccc1", "agent": "Hepatitis C virus", "protein": "HCV polymerase", "read-out": "IC50", "value": "<100 µM"}
{"SMILES": "O=C(O)c1sc(-c2ccccc2)cc1NS(=O)(=O)c1cccc(F)c1", "agent": "Hepatitis C virus", "protein": "NS3 ATPase", "read-out": "IC50", "value": "<5 µM"}
{"SMILES": "NN1C(=O)/C(=C\\c2ccc(Oc3ccccc3)cc2)SC1=S", "agent": "Hepatitis C virus", "protein": "NS5B polymerase", "read-out": "IC50", "value": ">30 µM"}
{"SMILES": "NC(C(=O)Nc1ccsc1-c1nc(C(=O)O)c(O)c(=O)[nH]1)c1cccc2ccccc12", "agent": "Hepatitis C virus", "protein": "HCV polymerase", "read-out": "IC50", "value": "<25 µM"}
{"SMILES": "Cc1ccc(C)c(S(=O)(=O)Nc2cc(-c3ccccc3)sc2C(=O)O)c1", "agent": "Hepatitis C virus", "protein": "NS3 ATPase", "read-out": "IC50", "value": "5–20 µM"}
{"SMILES": "O=C(Nc1ccc2cn[nH]c2c1)c1cc(N2CCN(CCO)CC2)c(F)cc1F", "agent": "Hepatitis B virus", "protein": "Reverse transcriptase", "read-out": "inhibition", "tested at": "1 µg/mL", "value": "76%"}
{"SMILES": "Cc1oc(-c2ccccc2)nc1CC(=O)Nc1ccsc1-c1nc(C(=O)O)c(O)c(=O)[nH]1", "agent": "Hepatitis C virus", "protein": "HCV polymerase", "read-out": "IC50", "value": "<25 µM"}
{"SMILES": "COc1ccc(-c2cc(NS(=O)(=O)c3ccc(C)cc3C)c(C(=O)O)s2)cc1", "agent": "Hepatitis C virus", "protein": "NS3 ATPase", "read-out": "IC50", "value": "<5 µM"}
{"SMILES": "NN1C(=O)/C(=C\\c2ccc(-c3cc(C(F)(F)F)ccc3Cl)o2)SC1=S", "agent": "Hepatitis C virus", "protein": "NS5B polymerase", "read-out": "IC50", "value": "≤30 µM"}
{"SMILES": "O=C(Nc1ccsc1-c1nc(C(=O)O)c(O)c(=O)[nH]1)OCC1CCCO1", "agent": "Hepatitis C virus", "protein": "HCV polymerase", "read-out": "IC50", "value": "<25 µM"}
{"SMILES": "CN(C)c1ccc(/C=C2/SC(=S)N(N)C2=O)cc1", "agent": "Hepatitis C virus", "protein": "NS5B polymerase", "read-out": "IC50", "value": ">30 µM"}
{"SMILES": "O=C(O)c1sc(-c2ccccc2)cc1NS(=O)(=O)c1ccc(Cl)cc1Cl", "agent": "Hepatitis C virus", "protein": "NS3 ATPase", "read-out": "IC50", "value": "<5 µM"}
{"SMILES": "CNN1C(=O)/C(=C\\c2ccc(Cl)c(Cl)c2)SC1=S", "agent": "Hepatitis C virus", "protein": "NS5B polymerase", "read-out": "IC50", "value": "≤30 µM"}
{"SMILES": "O=C(Nc1ccc2[nH]ncc2c1)c1cc(N2CCN(CCO)CC2)c(F)cc1F", "agent": "Hepatitis B virus", "protein": "Reverse transcriptase", "read-out": "inhibition", "tested at": "0.01 µg/mL", "value": "20%"}
{"SMILES": "O=C(Nc1ccsc1-c1nc(C(=O)O)c(O)c(=O)[nH]1)OCc1cccc2ccccc12", "agent": "Hepatitis C virus", "protein": "HCV polymerase", "read-out": "IC50", "value": "<25 µM"}
{"SMILES": "O=C(Nc1ccc2cn[nH]c2c1)c1cc(NCc2ccccn2)c(F)cc1F", "agent": "Hepatitis B virus", "protein": "Reverse transcriptase", "read-out": "IC50", "value": "0.1–1 µg/mL"}
{"SMILES": "CN(C(=O)c1ccccc1)N1C(=O)/C(=C/c2ccc(Cl)c(Cl)c2)SC1=S", "agent": "Hepatitis C virus", "protein": "NS5B polymerase", "read-out": "IC50", "value": "≤30 µM"}
{"SMILES": "O=C(Nc1ccsc1-c1nc(C(=O)O)c(O)c(=O)[nH]1)c1cc(F)cc(F)c1", "agent": "Hepatitis C virus", "protein": "HCV polymerase", "read-out": "IC50", "value": "<25 µM"}
{"SMILES": "O=C(Nc1ccc2cn[nH]c2c1)c1cc(N2CCNCC2)c(F)cc1F", "agent": "Hepatitis B virus", "protein": "Reverse transcriptase", "read-out": "IC50", "value": "0.1–1 µg/mL"}
{"SMILES": "O=C(O)c1sc(-c2ccccc2)cc1NS(=O)(=O)c1c(Cl)cccc1Cl", "agent": "Hepatitis C virus", "protein": "NS3 ATPase", "read-out": "IC50", "value": "<5 µM"}
{"SMILES": "O=C(Nc1ccc2[nH]ncc2c1)c1cc(C2CCNCCN2)c(F)cc1F", "agent": "Hepatitis C virus", "protein": "Nonstructural protein 5B", "read-out": "inhibition", "tested at": "1 µg/mL", "value": "21%"}
{"SMILES": "CN(C(=O)CCC1CCCC1)c1cc(-c2ccccc2)sc1C(=O)O", "agent": "Hepatitis C virus", "protein": "NS3 ATPase", "read-out": "IC50", "value": "<5 µM"}
{"SMILES": "O=C1NC(=S)S/C1=C/c1ccc(-c2cc(Cl)ccc2Cl)o1", "agent": "Hepatitis C virus", "protein": "NS5B polymerase", "read-out": "IC50", "value": ">30 µM"}
{"SMILES": "Cc1ccccc1C(=O)N(C)c1cc(-c2ccccc2)sc1C(=O)O", "agent": "Hepatitis C virus", "protein": "NS3 ATPase", "read-out": "IC50", "value": ">20 µM"}
{"SMILES": "C=CC[C@H](NC(=O)OC(C)(C)C)C(=O)Nc1ccsc1-c1nc(C(=O)O)c(O)c(=O)[nH]1", "agent": "Hepatitis C virus", "protein": "HCV polymerase", "read-out": "IC50", "value": "<25 µM"}

A second listing of 5 rows from above:

{"SMILES": "COc1ccc(-c2cc(NS(=O)(=O)c3ccc(C)cc3C)c(C(=O)O)s2)cc1", "agent": "Hepatitis C virus", "protein": "NS3 ATPase", "read-out": "IC50", "value": "<5 µM"}
{"SMILES": "Cc1ccccc1C(=O)N(C)c1cc(-c2ccccc2)sc1C(=O)O", "agent": "Hepatitis C virus", "protein": "NS3 ATPase", "read-out": "IC50", "value": ">20 µM"}
{"SMILES": "CN(C(=O)CCC1CCCC1)c1cc(-c2ccccc2)sc1C(=O)O", "agent": "Hepatitis C virus", "protein": "NS3 ATPase", "read-out": "IC50", "value": "<5 µM"}
{"SMILES": "NN1C(=O)/C(=C\\c2ccc(-c3cc(C(F)(F)F)ccc3Cl)o2)SC1=S", "agent": "Hepatitis C virus", "protein": "NS5B polymerase", "read-out": "IC50", "value": "≤30 µM"}
{"SMILES": "CNN1C(=O)/C(=C\\c2ccc(Cl)c(Cl)c2)SC1=S", "agent": "Hepatitis C virus", "protein": "NS5B polymerase", "read-out": "IC50", "value": "≤30 µM"}

Two numbers with a dash give a range or band. Percent inhibition refers to the dose given; in toxicity tests it is the harm to the cells. Conditions beyond the fields shown may differ between rows.